Pooled drug test results. Numbers come from NIAID ChemDB, via PubChem.

Common to all: whole-cell or culture tests

An empty or dashed field is not shown. Neighbouring rows are from separate reports. Inhibition is in % at the dose shown (toxicity tests: loss of growth or viability). ECn: concentration that inhibits the pathogen or its effect by n%. Fold resistance has wild type as its base. Two numbers with a dash give a range or band. A number after MIC or MFC names an inhibition level or a share of isolates.

smiles | cells | mutations | dose | measure | strain | read by | organism | result
OCCC#Cc1ccc(-c2cccs2)s1 | 3T3-L1 | - | - | EC50 | - | plaque count | Mouse cytomegalovirus | 0.021 µg/mL
CCCCCCCCN(CC1=C(O)c2ccccc2C(=O)C1=O)Cc1ccccc1 | - | - | - | EC50 | ATO | - | Toxoplasma gondii | 1.2 µM
C[N+](C)(C)CCn1c(Cn2nnc3ccccc32)nc2cc([N+](=O)[O-])ccc21 | HEP-2 | - | 4 µg/mL | inhibition | LONG | - | Respiratory syncytial virus | 100%
O=C1C(=O)c2ccccc2C(O)=C1C1CCC(c2ccc(Cl)cc2)CC1 | MRC-5 fibroblasts | - | 5 µg/mL | inhibition | - | cytopathic effect | Encephalitozoon cuniculi | 0%
O=C(C#CC=CC#CC(=O)c1cccs1)c1cccs1 | 3T3-L1 | - | - | EC50 | - | plaque count | Mouse cytomegalovirus | >1 µg/mL
CCCCCCCCCCCCCCCCCCNc1nc(=O)c2ncn([C@@H]3O[C@H](CO)[C@@H](O)[C@H]3O)c2c(=O)[nH]1 | HepG2.2.15 | - | - | EC50 | - | cytopathic effect | West Nile virus | 5 µM
Cc1nc(Cl)c([N+](=O)[O-])c(N2CC[N+](C)(C)CC2)n1 | HeLa | - | - | EC50 | B3 | cytopathic effect | Coxsackie virus | >70 µg/mL
C[C@H](Cn1cnc2nc(N)nc(N(C)C)c21)OCP(=O)(O)O | P3HR-1 | - | - | EC50 | - | hybridisation | Epstein-Barr virus | 4 µg/mL
CCC(C)n1ncn(-c2ccc(N3CCN(c4ccc(OC[C@H]5CO[C@](Cn6cncn6)(c6ccc(Cl)cc6Cl)O5)cc4)CC3)cc2)c1=O | - | - | - | MIC50 | 52 clinical isolates | broth dilution | Candida parapsilosis | 0.062 µg/mL
c1csc(-c2ccc(-c3cccs3)s2)c1 | 3T3-L1 | - | - | EC50 | - | plaque count | Mouse cytomegalovirus | 0.062 µg/mL
O=c1ccc2cccc(O)c2[nH]1 | - | - | - | MIC50 | - | - | Vittaforma corneae | 52 µM
C(C#Cc1cccs1)#Cc1cccs1 | 3T3-L1 | - | - | EC50 | - | plaque count | Mouse cytomegalovirus | 0.062 µg/mL
CC[C@@]1(O)C(=O)OCc2c1cc1n(c2=O)Cc2cc3cc4c(cc3nc2-1)OCO4 | - | - | - | EC50 | - | - | Trypanosoma brucei | 0.16 µM
CC#Cc1ccc(-c2cccs2)s1 | 3T3-L1 | - | - | EC50 | - | plaque count | Mouse cytomegalovirus | 0.5 µg/mL
C[C@@H](c1ncncc1F)[C@](O)(Cn1cncn1)c1ccc(F)cc1F | - | - | - | MIC50 | 24 clinical isolates | broth dilution | Candida guilliermondii | ≤0.031 µg/mL
C[C@@H](O)C1=C[C@@H](n2cnc3c(N)ncnc32)[C@H](O)[C@@H]1O | VERO | - | - | EC50 | SSPE Yamagata-1 | plaque count | Measles virus | 0.12 µg/mL
Nc1nc(N2CC[N+]3(CC2)CC[N+]2(CCN(c4nc(N)[nH]c(=O)c4[N+](=O)[O-])CC2)CC3)c([N+](=O)[O-])c(=O)[nH]1 | HeLa | - | - | EC50 | B3 | cytopathic effect | Coxsackie virus | >70 µg/mL
Nc1nc2c(ncn2CCC(CO)CO)c(=O)[nH]1 | HEL | - | - | EC50 | PMEDAP-resistant | plaque count | Varicella zoster virus | 0.51 µg/mL
C[C@@H](Cn1cnc2c(NCCN(C)C)ncnc21)OCP(=O)(O)O | P3HR-1 | - | - | EC50 | - | hybridisation | Epstein-Barr virus | 0.5 µg/mL
CCCCCCCCCCCCNc1nc(=O)c2ncn([C@H]3C[C@H](O)[C@@H](CO)O3)c2c(=O)[nH]1 | HepG2.2.15 | - | - | EC50 | - | cytopathic effect | West Nile virus | 3–10 µM
Nc1ccn(C[C@@H](CO)OCP(=O)(O)O)c(=O)n1 | P3HR-1 | - | - | EC50 | - | hybridisation | Epstein-Barr virus | 0.4 µg/mL
S=C(S)N1CCCC1 | HeLa | - | 31 µM | inhibition | TYPE 8 | - | Rhinovirus | 10%
CC[C@@]1(O)C(=O)OCc2c1cc1n(c2=O)Cc2cc3c(Cl)c4c(cc3nc2-1)OCO4 | - | - | - | EC50 | - | - | Trypanosoma brucei | 0.041 µM
O=c1cnn([C@@H]2O[C@H](CO)[C@@H](O)[C@H]2O)c(=O)[nH]1 | VERO | - | - | EC50 | Sicilian | cytopathic effect | Sandfly fever virus | 0.04 µg/mL
CN(C)CCNc1ncnc2c1ncn2CCOCP(=O)(O)O | P3HR-1 | - | - | EC50 | - | hybridisation | Epstein-Barr virus | 12 µg/mL
CN(C)c1ccc(O)c2c1C[C@H]1C[C@H]3[C@H](N(C)C)C(=O)C(C(N)=O)=C(O)[C@@]3(O)C(=O)C1=C2O | MRC-5 fibroblasts | - | 20 µg/mL | inhibition | - | cytopathic effect | Encephalitozoon cuniculi | 35%
c1cc(-c2csc(-c3ccsc3)c2)cs1 | 3T3-L1 | - | - | EC50 | - | plaque count | Mouse cytomegalovirus | >1 µg/mL
O=P(O)(O)C(O)(Cc1cccnc1)P(=O)(O)O | - | - | 38.6 µM | inhibition | 3D7 | - | Plasmodium falciparum | 90%
N#Cc1ccc(N2CC[N+]3(CC2)CC[N+]2(CCN(c4ccc(C#N)cc4[N+](=O)[O-])CC2)CC3)c([N+](=O)[O-])c1 | HeLa | - | - | EC50 | B3 | cytopathic effect | Coxsackie virus | >70 µg/mL
O=C(O)c1cn(C2CC2)c2cc(N3CCNCC3)c(F)cc2c1=O | - | - | - | MIC50 | - | - | Vittaforma corneae | 66 µM
O=C1Nc2nc[nH]c2C(=O)N(Cc2ccccc2)N1 | HepG2.2.15 | - | - | EC50 | - | cytopathic effect | West Nile virus | 3–5 µM
OCCC#Cc1cc2ccccc2s1 | 3T3-L1 | - | - | EC50 | - | plaque count | Mouse cytomegalovirus | >1 µg/mL
CSc1nc(Cl)c([N+](=O)[O-])c(N2CC[N+]3(CC2)CC[N+]2(CCN(c4nc(SC)nc(Cl)c4[N+](=O)[O-])CC2)CC3)n1 | HeLa | - | - | EC50 | B3 | cytopathic effect | Coxsackie virus | >70 µg/mL
OCCC#Cc1ccc(-c2ccc(C#CCCO)s2)s1 | 3T3-L1 | - | - | EC50 | - | plaque count | Mouse cytomegalovirus | 0.047 µg/mL
CCN(CC)CCn1c(Cn2nc3ccccc3n2)nc2cc(Cl)ccc21 | HEP-2 | - | 4 µg/mL | inhibition | LONG | - | Respiratory syncytial virus | 100%
CC1(C)[C@@H](O[C@H]2O[C@H](C(=O)O)[C@@H](O)[C@H](O)[C@H]2O[C@@H]2O[C@H](C(=O)O)[C@@H](O)[C@H](O)[C@H]2O)CC[C@]2(C)[C@H]3C(=O)C=C4[C@@H]5C[C@@](C)(C(=O)O)CC[C@]5(C)CC[C@@]4(C)[C@]3(C)CC[C@@H]12 | VERO | - | - | EC50 | Sicilian | cytopathic effect | Sandfly fever virus | 215 µg/mL
NC(=O)c1c[se]c([C@@H]2O[C@H](CO)[C@@H](O)[C@H]2O)n1 | VERO 76 | - | - | EC50 | - | antigen | Pichinde virus | <1 µg/mL
CCCSc1ccc2nc(NC(=O)OC)[nH]c2c1 | MRC-5 fibroblasts | - | 0.01 µg/mL | inhibition | - | cytopathic effect | Encephalitozoon cuniculi | 100%
Nc1nccc2c1ncn2[C@@H]1C[C@H](CO)[C@@H](O)[C@H]1O | MA-104 | - | - | EC90 | - | virus yield | Rotavirus A | 1.4 µg/mL
CCN(CC)CCCn1c(Cn2nnc3ccccc32)nc2cc([N+](=O)[O-])ccc21 | HEP-2 | - | 4 µg/mL | inhibition | LONG | - | Respiratory syncytial virus | 91%
Nc1ccn(C[C@@H](CO)OCP(=O)(O)O)c(=O)n1 | HEL | - | - | EC50 | PFA-resistant/B | plaque count | Varicella zoster virus | 0.078 µg/mL
CCOc1cc(O)c(C(=O)NCc2ccc(NC)cc2)c(OC)c1 | HeLa | - | - | EC50 | TYPE 9 | cytopathic effect | Rhinovirus | 0.0037 µg/mL
C#C[C@]1(CO)O[C@@H](n2cnc3c(N)nc(F)nc32)C[C@@H]1O | PBMC | - | - | EC50 | - | p27 / ELISA | SIV | 0.00004 µM
NC(=O)c1ncn([C@@H]2O[C@H](CO)[C@@H](O)[C@H]2O)n1 | VERO | - | - | EC50 | - | plaque count | Punta Toro virus | 114 µM
CC(C)S(=O)(=O)n1c(N)nc2ccc(/C(=N/O)c3ccccc3)cc21 | HeLa | - | - | EC50 | TYPE 2 | cytopathic effect | Rhinovirus | 0.06–0.12 µg/mL
O=C1NNC(=O)c2[nH]cnc2N1 | HepG2.2.15 | - | - | EC50 | - | cytopathic effect | West Nile virus | >500 µM
CCN(CC)CCCn1c(Cn2nc3ccccc3n2)nc2cc(C(C)=O)ccc21 | HEP-2 | - | 4 µg/mL | inhibition | LONG | - | Respiratory syncytial virus | 56%
C#CC[C@@H](C(=O)N[C@H](/C=C/C(=O)OCC)C[C@@H]1CCNC1=O)n1cccc(NC(=O)c2cc(C)on2)c1=O | H1-HELA | - | - | EC50 | Serotype 49 | cytopathic effect / XTT | Rhinovirus | 0.017 µM
O=c1[nH]cc(F)c(=O)[nH]1 | MRC-5 fibroblasts | - | 0.2 µg/mL | inhibition | - | cytopathic effect | Encephalitozoon cuniculi | 0%
Nc1ccn(C[C@H]2COP(=O)(O)CO2)c(=O)n1 | P3HR-1 | - | - | EC50 | - | hybridisation | Epstein-Barr virus | 0.3 µg/mL
C#C[C@]1(CO)O[C@@H](n2cnc3c(N)nc(F)nc32)CC1O | MAGIC-5A | K65R M184V | - | fold resistance | ROD9 | β-galactosidase / absorbance | HIV-2 | 19
COC(=O)[C@H]1[C@@H]2C[C@@H](O[C@@H]3O[C@H](C)[C@@H](O)[C@H](N)[C@@H]3O)/C=C/C=C/C=C/C=C/C=C/C=C/C=C/[C@H](C)[C@@H](O)[C@H](C)[C@H](C)OC(=O)C[C@H](O)C[C@H](O)[C@@H](O)CC[C@H](O)C[C@H](O)C[C@](O)(C[C@@H]1O)O2 | T98G | - | 50 µg/mL | inhibition | - | plaque count | Vesicular stomatitis virus | 0%
C[C@H](Cn1cnc2ncnc(N(C)C)c21)OCP(=O)(O)O | P3HR-1 | - | - | EC50 | - | hybridisation | Epstein-Barr virus | 0.8 µg/mL
COc1ccc(CNC(=O)c2c(O)cc(OCC=C(C)C)cc2OC)cc1 | HeLa | - | - | EC50 | TYPE 9 | cytopathic effect | Rhinovirus | 0.063 µg/mL
NC(=O)c1ncn([C@@H]2O[C@H](CO)[C@@H](O)[C@H]2O)n1 | VERO 76 | - | 10 µg/mL | inhibition | - | antigen | Pichinde virus | 100%
COc1ccc(OC)c(Cc2cnc3nc(N)nc(N)c3c2C)c1 | MRC-5 fibroblasts | - | 10 µg/mL | inhibition | - | cytopathic effect | Encephalitozoon cuniculi | 2%
CC(C)[C@H](NC(=O)[C@H](CCCN=C(N)N)NC(=O)N[C@@H](Cc1ccccc1)C(=O)O)C(=O)N[C@H](C=O)CCCN=C(N)N | - | - | 100 µg/mL | inhibition | - | - | Cryptosporidium parvum | 79.06%
Nc1ncnc2c1ncn2C[C@@H](CO)OCP(=O)(O)O | HEL | - | - | EC50 | PFA-resistant/B | plaque count | Varicella zoster virus | 0.048 µg/mL
CCCCCCCCCCCCCCNc1nc(=O)c2ncn([C@@H]3O[C@H](CO)[C@@H](O)[C@H]3O)c2c(=O)[nH]1 | HepG2.2.15 | - | - | EC50 | - | cytopathic effect | West Nile virus | 3–10 µM
Nc1[nH]c(=O)ncc1F | MRC-5 fibroblasts | - | 50 µg/mL | inhibition | - | cytopathic effect | Encephalitozoon cuniculi | 0%
CC1CCc2cc(F)cc3c(=O)c(C(=O)O)cn1c23 | - | - | - | MIC50 | - | - | Vittaforma corneae | 132 µM
Nc1nc2c(ncn2COC(CO)CO)c(=O)[nH]1 | HEL | - | - | EC50 | PCV-resistant/A | plaque count | Varicella zoster virus | 0.098 µg/mL

A second listing of 9 rows from above:

smiles	cells	mutations	dose	measure	strain	read by	organism	result
c1csc(-c2ccc(-c3cccs3)s2)c1	3T3-L1	-	-	EC50	-	plaque count	Mouse cytomegalovirus	0.062 µg/mL
CSc1nc(Cl)c([N+](=O)[O-])c(N2CC[N+]3(CC2)CC[N+]2(CCN(c4nc(SC)nc(Cl)c4[N+](=O)[O-])CC2)CC3)n1	HeLa	-	-	EC50	B3	cytopathic effect	Coxsackie virus	>70 µg/mL
OCCC#Cc1ccc(-c2ccc(C#CCCO)s2)s1	3T3-L1	-	-	EC50	-	plaque count	Mouse cytomegalovirus	0.047 µg/mL
CCCSc1ccc2nc(NC(=O)OC)[nH]c2c1	MRC-5 fibroblasts	-	0.01 µg/mL	inhibition	-	cytopathic effect	Encephalitozoon cuniculi	100%
C#C[C@]1(CO)O[C@@H](n2cnc3c(N)nc(F)nc32)CC1O	MAGIC-5A	K65R M184V	-	fold resistance	ROD9	β-galactosidase / absorbance	HIV-2	19
NC(=O)c1ncn([C@@H]2O[C@H](CO)[C@@H](O)[C@H]2O)n1	VERO 76	-	10 µg/mL	inhibition	-	antigen	Pichinde virus	100%
CC[C@@]1(O)C(=O)OCc2c1cc1n(c2=O)Cc2cc3cc4c(cc3nc2-1)OCO4	-	-	-	EC50	-	-	Trypanosoma brucei	0.16 µM
C[C@@H](O)C1=C[C@@H](n2cnc3c(N)ncnc32)[C@H](O)[C@@H]1O	VERO	-	-	EC50	SSPE Yamagata-1	plaque count	Measles virus	0.12 µg/mL
CN(C)c1ccc(O)c2c1C[C@H]1C[C@H]3[C@H](N(C)C)C(=O)C(C(N)=O)=C(O)[C@@]3(O)C(=O)C1=C2O	MRC-5 fibroblasts	-	20 µg/mL	inhibition	-	cytopathic effect	Encephalitozoon cuniculi	35%